Compound potency records, mixed from different reports. Data source: NIAID ChemDB in PubChem.

Shared fields: tests on isolated targets; organism: HIV-1; protein: Reverse transcriptase

Two numbers with a dash give a range or band. ICn: concentration for n% inhibition. An empty or dashed field is not shown. Neighbouring rows are from separate reports.

{"structure": "O=C1CC2c3cccn3S(=O)(=O)c3ccccc3N12", "strain or isolate": "IIIB", "measure": "IC50", "method": "RT activity", "result": "17 µM"}
{"structure": "COc1c(C)c(O)c(C(C)=O)c(O)c1Cc1c(O)c(CC=C(C)C)c(O)c(C(C)=O)c1O", "measure": "Ki", "method": "RT activity", "result": "6.1 µM"}
{"structure": "COc1c(-c2cc(C)[nH]n2)c(O)c(S(=O)(=O)Oc2ccc(F)cc2)c2occc12", "measure": "IC50", "method": "RT activity / radiometric", "result": "0.0000041 µM"}
{"structure": "NC(=O)c1ncn(C2CCCC2)c1N", "measure": "IC50", "result": ">100 µM"}
{"structure": "O=C(CSC(=O)N1CCCc2cc(Cl)cc(Cl)c21)Nc1ccc(C(=O)NCc2ccccc2)cc1Cl", "measure": "IC50", "method": "scintillation proximity", "mutations": "WT", "result": "0.002 µM"}
{"structure": "C/C(=C\\CC/C(C)=C/CCc1ccoc1)C/C=C/C1=CCC(=O)OC1", "measure": "IC50", "method": "nucleotide incorporation / radiometric", "result": "5.6 µM"}
{"structure": "O=P(O)(O)OP(=O)(O)O", "measure": "Ki", "method": "nucleotide incorporation / radiometric", "mutations": "RT-D113E", "result": "425 µM"}
{"structure": "Nc1cc(OC[C@H]2CC[C@@H](COP(=O)([O-])OP(=O)([O-])OP(=O)([O-])O)O2)nc(N)n1", "measure": "IC50", "method": "nucleotide incorporation / radiometric", "conditions": "Mg2+", "result": ">500 µM"}
{"structure": "CCN1c2ncccc2C(=O)N(C)c2ccc(-c3ccc[nH]3)nc21", "measure": "IC50", "method": "nucleotide incorporation / radiometric", "mutations": "RT-Y188L", "result": ">1 µM"}
{"structure": "CC1=CC2C(=O)c3cc(OCC(=O)c4ccccc4)c(Br)c(O)c3C(=O)C2C(O)=C1", "measure": "IC50", "method": "nucleotide incorporation", "result": "35 µM"}
{"structure": "C=C(C)[C@@H]1CC[C@]2(C(=O)O)CC[C@]3(C)[C@H](CC[C@@H]4[C@@]5(C)CC[C@H](O)C(C)(C)[C@@H]5CC[C@]43C)[C@@H]12", "measure": "IC50", "method": "nucleotide incorporation", "result": "7.9 µM"}
{"structure": "COc1c(C(=O)/C=C(/C)Nc2ccccc2)c(O)c(S(=O)(=O)Oc2ccc([N+](=O)[O-])cc2)c2occc12", "measure": "IC50", "method": "RT activity / radiometric", "result": "0.0000074 µM"}
{"structure": "CC1(C)C2CC=C3C(=CC[C@@]4(C)C5C[C@](C)(CO)CC[C@]5(C)CC[C@]34C)[C@@]2(C)CC[C@H]1O", "measure": "IC50", "method": "nucleotide incorporation", "result": "11 µM"}
{"structure": "Oc1cc(O)c2c(c1)O[C@H](c1ccc(O)c(O)c1)[C@H](O)[C@H]2c1c(O)cc(O)c2c1O[C@H](c1ccc(O)c(O)c1)[C@H](O)C2", "measure": "IC50", "method": "nucleotide incorporation", "result": ">20 µg/mL"}
{"structure": "CC(=O)COc1c(Br)c(O)c2c(c1Br)C(=O)C1C=C(C)C=C(O)C1C2=O", "measure": "IC50", "method": "nucleotide incorporation", "result": "17 µM"}
{"structure": "Cc1cc(C)cc(S(=O)(=O)c2c(C(=O)NCCO)[nH]c3ccc(Cl)cc23)c1", "measure": "IC50", "method": "nucleotide incorporation / radiometric", "mutations": "RT-K103N", "result": "1.9 µM"}
{"structure": "CC1=CC[C@@]2(C)[C@@H]([C@@H]1C)[C@H]1CCC3[C@@]4(C)CC[C@H](O)C(C)(C)[C@@H]4CC[C@@]3(C)[C@]1(C)C[C@@H]2O", "measure": "IC50", "method": "nucleotide incorporation", "result": ">45 µM"}
{"structure": "O=C(CC1Nc2ccccc2S(=O)(=O)n2cccc21)Oc1ccc(Cl)cc1", "strain or isolate": "IIIB", "measure": "IC50", "method": "RT activity", "result": "119 µM"}
{"structure": "CCN1c2ncccc2C(=O)N(C)c2ccc(-c3cn[nH]c3C)nc21", "strain or isolate": "WT", "measure": "IC50", "method": "nucleotide incorporation / radiometric", "result": "<1 µM"}
{"structure": "C=Cc1cc(N(C)C)nc(S(C)(=O)=O)n1", "measure": "Ki", "method": "nucleotide incorporation / radiometric", "mutations": "RT-K103N", "result": "3.2 µM"}
{"structure": "CC1=CCC[C@H]2[C@](C)(Cc3c(O)ccc(O)c3O)[C@@H](C)CC[C@]12C", "measure": "IC50", "result": "7 µg/mL"}
{"structure": "COc1ccc2c(c1)CCN(c1nn3c(C4CC4)nnc3c3ccccc13)C2", "strain or isolate": "98US_MSC5016", "measure": "IC50", "method": "RT activity / fluorescence", "result": "1.07 µM"}
{"structure": "C=CNc1nc(Nc2ccc(C#N)cc2F)nc(Oc2ccc3cccc(Cl)c3c2)n1", "measure": "IC50", "method": "RT activity / fluorescence", "result": "1.98 µM"}
{"structure": "Nc1cc2c(c(N3CCOCC3)c1)CCN(c1nn3c(C4CC4)nnc3c3ccccc13)C2", "strain or isolate": "IIIB", "measure": "IC90", "method": "RT activity / fluorescence", "result": "85.2 µM"}
{"structure": "Nc1ncnc2c1ncn2[C@@H]1O[C@H](CO)C=C1F", "measure": "IC50", "result": "0.4 µM"}
{"structure": "CCOCn1c(Sc2ccccc2)c(CC)c(=O)[nH]c1=O", "measure": "IC50", "result": "0.27 µM"}
{"structure": "CCN1c2nc(C(F)(F)F)ccc2NC(=O)c2cc(CCOc3cc[n+]([O-])c4ccccc34)cnc21", "strain or isolate": "IIIB", "measure": "IC50", "method": "nucleotide incorporation / radiometric", "result": "0.035 µM"}
{"structure": "CC(=O)Oc1c(O)ccc(O)c1C[C@]1(C)[C@@H](C)CC[C@]2(C)C(C)=CCC[C@@H]12", "measure": "IC50", "result": ">50 µg/mL"}
{"structure": "CC(=O)N(C)C1CCN(CCn2c(=O)nc(-c3ccccc3)c3oc4ccc(Br)cc4c32)C1", "measure": "IC50", "method": "PicoGreen / fluorescence", "result": "5 µM"}
{"structure": "O=C1OCC2OC(=O)c3cc(O)c(O)c(O)c3-c3c(O)c(O)c(O)c4c3C(=O)OC(C2OC(=O)c2cc(O)c(O)c(O)c2-c2c1cc(O)c(O)c2O)C1OC(=O)c2c-4c(O)c(O)c(O)c2[C@H]1C1(O)OC(CO)[C@@H](O)[C@H]1O", "measure": "IC50", "method": "nucleotide incorporation", "result": ">20 µg/mL"}
{"structure": "COc1ccc(N/C(C)=C\\C(=O)c2c(O)c(S(=O)(=O)Oc3ccc([N+](=O)[O-])cc3)c3occc3c2OC)cc1", "measure": "IC50", "method": "RT activity / radiometric", "result": "0.0000071 µM"}
{"structure": "CCN1c2ncccc2C(=O)N(C)c2ccc(-c3cc[nH]c3C(C)=O)nc21", "measure": "IC50", "method": "nucleotide incorporation / radiometric", "mutations": "RT-Y188L", "result": ">1 µM"}
{"structure": "Cc1nnc2c3ccccc3c(N3CCc4cc(O)c(O)cc4C3)nn12", "strain or isolate": "98US_MSC5016", "measure": "IC90", "method": "RT activity / fluorescence", "result": "2.83 µM"}
{"structure": "N#Cc1cc(Cl)cc(C(=O)c2cc(Cl)ccc2OCc2[nH]nc3ncccc23)c1", "measure": "IC50", "method": "scintillation proximity / radiometric", "result": "0.0244 µM"}
{"structure": "N#Cc1ccc(Nc2nc(N)nc(Oc3ccc4cccc(Br)c4c3)n2)c(F)c1", "measure": "IC50", "method": "RT activity / fluorescence", "result": "0.415 µM"}
{"structure": "CCCCC#CC1(C(F)(F)F)OC(=O)Nc2ccc(N)cc21", "measure": "IC50", "result": "1.506 µM"}
{"structure": "Nc1ncnc2c1ncn2[C@@H]1O[C@H](COP(=O)(O)OP(=O)(O)OP(=O)(O)O)[C@H]1CO", "measure": "Ki", "result": "0.85 µM"}
{"structure": "CCCCC#CC1(C(F)(F)F)OC(=O)Nc2cccc(F)c21", "measure": "IC50", "result": "0.156 µM"}
{"structure": "CCCN1c2ncccc2C(=O)N(C)c2ccc(-c3cn[nH]c3)nc21", "measure": "IC50", "method": "nucleotide incorporation / radiometric", "mutations": "RT-Y181C", "result": "<1 µM"}
{"structure": "CSC1=NC2(C[C@@H]2c2ccccc2)C(=O)N1C(C)=O", "measure": "IC50", "result": "22.2 µg/mL"}
{"structure": "O=C(O)C1=C[C@@H](OC(=O)c2cc(O)c(O)c(O)c2)[C@@H](OC(=O)c2cc(O)c(O)c(O)c2)[C@H](OC(=O)c2cc(O)c(O)c(O)c2)C1", "measure": "IC50", "method": "nucleotide incorporation", "result": ">20 µg/mL"}
{"structure": "CN1C(=O)c2cccnc2N(C2CC2)c2nc(-c3cn[nH]c3)ccc21", "strain or isolate": "WT", "measure": "IC50", "method": "nucleotide incorporation / radiometric", "result": "<1 µM"}
{"structure": "C#CC(O)/C=C/C/C=C/C=C/C=C/CC#CC(O)C#CC/C=C/C=C/C=C/CC(O)C#C", "measure": "Ki", "method": "radiometric", "result": "0.513 µM"}
{"structure": "O=C(OC1[C@H](O)CC(OC(=O)c2cc(O)c(O)c(O)c2)(C(=O)O)C[C@H]1O)c1cc(O)c(O)c(O)c1", "measure": "IC50", "method": "nucleotide incorporation", "result": ">20 µg/mL"}
{"structure": "CCN(CC)CCNc1nc(NCCCNC(=O)c2cccc(C(=O)NCCCNc3nc4c(c(NCCN(CC)CC)n3)CC=CC4)c2)nc2c1CC=CC2", "measure": "IC50", "result": ">50 µM"}
{"structure": "CCCNc1nc(Nc2ccc(C#N)cc2F)nc(Oc2ccc(C)cc2)n1", "measure": "IC50", "method": "RT activity / fluorescence", "result": "4.35 µM"}
{"structure": "Nc1nc(Nc2ccc(Cl)c(Cl)c2)nn1S(=O)(=O)c1ccc2ccccc2c1", "strain or isolate": "IIIB", "measure": "IC50", "method": "luciferase / RT activity", "result": "4.7 µM"}
{"structure": "C=Cc1nc(SC)nc(N(C)C)c1Cl", "measure": "Ki", "method": "nucleotide incorporation / radiometric", "mutations": "RT-Y181I", "result": ">400 µM"}
{"structure": "COc1ccnc2[nH]cc(C(=O)C(=O)N3CCN(C(=O)c4ccccc4)C[C@H]3C)c12", "measure": "IC50", "result": ">100 µM"}
{"structure": "Cc1nnc2c3ccccc3c(N3CCc4ccc(N)cc4C3)nn12", "strain or isolate": "KER2008", "measure": "IC50", "method": "RT activity / fluorescence", "result": "11.9 µM"}
{"structure": "CNc1nc(Nc2ccc(C#N)cc2)nc(Oc2ccc3ccccc3c2)n1", "measure": "IC50", "method": "RT activity / fluorescence", "result": "0.156 µM"}
{"structure": "CCN1c2ncccc2C(=O)N(C)c2ccc(-c3c[nH]c(C(N)=O)c3)nc21", "measure": "IC50", "method": "nucleotide incorporation / radiometric", "mutations": "RT-Y181C", "result": "<1 µM"}
{"structure": "Nc1nc(Nc2ccc(Cl)cc2)nn1S(=O)(=O)c1ccc2ccccc2c1", "strain or isolate": "A17", "measure": "IC50", "method": "luciferase / RT activity", "mutations": "Y181C/K103N", "result": ">1000 µM"}
{"structure": "N/C(=N\\O)c1ncn(C2CCCC2)c1N", "measure": "IC50", "result": "0.5 µM"}
{"structure": "CCNc1nc(Nc2ccc(C#N)cc2F)nc(Oc2ccc3cccc(Cl)c3c2)n1", "measure": "IC50", "method": "RT activity / fluorescence", "result": "1.618 µM"}
{"structure": "O=C(O[C@@H]1O[C@@H]2COC(=O)c3cc(O)c(O)c(O)c3-c3c(cc(O)c(O)c3O)C(=O)O[C@H]([C@H]1OC(=O)c1cc(O)c(O)c(O)c1)[C@@H]2OC(=O)c1cc(O)c(O)c(O)c1)c1cc(O)c(O)c(O)c1", "measure": "IC50", "method": "nucleotide incorporation", "result": ">20 µg/mL"}
{"structure": "COP(=O)(c1cc(C)cc(CCC#N)c1)c1c(C(N)=O)[nH]c2ccc(Cl)cc12", "measure": "IC50", "method": "RT activity", "mutations": "Y181C/K103N", "result": "1.614 µM"}
{"structure": "CC(C)=CCC[C@@H](C)[C@@H]1CC[C@]2(C)C3=C(CC[C@@]12C)[C@@]1(C)CC[C@H](O)C(C)(C)[C@@H]1CC3", "measure": "IC50", "method": "nucleotide incorporation", "result": "14 µM"}
{"structure": "CNc1nc(Nc2ccc(C#N)cc2F)nc(Oc2ccc3cccc(Cl)c3c2)n1", "measure": "IC50", "method": "RT activity / fluorescence", "result": "0.802 µM"}
{"structure": "Cc1cc(C(=O)O)ccc1N=Nc1c(S(=O)(=O)O)cc2cc(NC(=O)Nc3ccc4c(O)c(N=Nc5ccc(C(=O)O)cc5C)c(S(=O)(=O)O)cc4c3)ccc2c1O", "measure": "IC50", "result": "0.025–0.1 µM"}
{"structure": "CCN1c2ncccc2C(=O)N(C)c2ccc(-c3cc[nH]c3C#N)nc21", "measure": "IC50", "method": "nucleotide incorporation / radiometric", "mutations": "RT-Y188L", "result": "<1 µM"}

A second listing of 8 rows from above:

| structure | strain or isolate | measure | method | mutations | conditions | result |
|---|---|---|---|---|---|---|
| CCN1c2nc(C(F)(F)F)ccc2NC(=O)c2cc(CCOc3cc[n+]([O-])c4ccccc34)cnc21 | IIIB | IC50 | nucleotide incorporation / radiometric |  |  | 0.035 µM |
| CC(=O)N(C)C1CCN(CCn2c(=O)nc(-c3ccccc3)c3oc4ccc(Br)cc4c32)C1 |  | IC50 | PicoGreen / fluorescence |  |  | 5 µM |
| CCN(CC)CCNc1nc(NCCCNC(=O)c2cccc(C(=O)NCCCNc3nc4c(c(NCCN(CC)CC)n3)CC=CC4)c2)nc2c1CC=CC2 |  | IC50 |  |  |  | >50 µM |
| C/C(=C\CC/C(C)=C/CCc1ccoc1)C/C=C/C1=CCC(=O)OC1 |  | IC50 | nucleotide incorporation / radiometric |  |  | 5.6 µM |
| CC1=CCC[C@H]2[C@](C)(Cc3c(O)ccc(O)c3O)[C@@H](C)CC[C@]12C |  | IC50 |  |  |  | 7 µg/mL |
| CCN1c2ncccc2C(=O)N(C)c2ccc(-c3ccc[nH]3)nc21 |  | IC50 | nucleotide incorporation / radiometric | RT-Y188L |  | >1 µM |
| CN1C(=O)c2cccnc2N(C2CC2)c2nc(-c3cn[nH]c3)ccc21 | WT | IC50 | nucleotide incorporation / radiometric |  |  | <1 µM |
| N#Cc1cc(Cl)cc(C(=O)c2cc(Cl)ccc2OCc2[nH]nc3ncccc23)c1 |  | IC50 | scintillation proximity / radiometric |  |  | 0.0244 µM |